We go through one molecule from PubChem BioAssay AID720517 (National Center for Advancing Translational Sciences (NCATS), 2013).

This is a selection; strong and weak results do not stand in their true shares. Inconclusive results are not listed. Active and inactive are the calls of the source. Calls come from the whole dose curve; as a rule, active = well fitted activation curve with a large enough effect; inconclusive = small, poorly fitted or top-dose-only effect; inactive = flat fitted curve, though single readings scatter.

This test is described as follows: qHTS for Inhibitors of Cell Surface uPA Generation: FP59 Counterscreen for Cherry-picked Compounds. Note: 0% is about no effect. Conditions: FP59 anthrax toxin cytotoxicity counterscreen, cells; at 115 µM (top of the series).

As for `CCN(CC)CCCOC(=O)C(O)(c1ccccc1)c1ccccc1`, the activity (protection from FP59) was inactive: -1.07%.
